Anti-infective test results gathered from many reports (values: NIAID ChemDB through PubChem).

Shared fields: tests in culture; agent: HIV-1

Blank or dashed fields: not listed here.

structure | strain or isolate | setting | endpoint | read by | changes | cells | result
Nc1nc(NC2CC2)c2ncn([C@H]3C=C[C@@H](COP4(=O)OCc5ccccc5O4)C3)c2n1 | IIIB |  | EC50 | syncytia |  | CEM | 0.95 µM
O=C(O)c1cccc(SS(=O)(=O)c2cccc(C(=O)O)c2)c1 | RF |  | EC50 | cytopathic effect / XTT |  | CEM + CEM-SS | 9.4 µM
Nc1ncnc2c1ncn2CC(CF)OCP(=O)(O)O | IIIB TIBO R82150-resistant (RT L100I) |  | EC50 | syncytia | RT-L100I | CEM | 2 µM
c1cc(CN2CCCNCCNCCCNCC2)ccc1CN1CCCNCCNCCCNCC1 | HE R5X4 |  | EC50 | p24 |  | U87 (CD4+ CCR5+) + U87 | >0.1 µM
Cc1cc(C)c(C(=O)O)c(SSc2cc(C)cc(C)c2C(=O)O)c1 | RF |  | EC50 | cytopathic effect / XTT |  | CEM + CEM-SS | 46.9 µM
Cc1cn([C@H]2C[C@H](N=[N+]=[N-])[C@@H](CO)O2)c(=O)[nH]c1=O | NL4-3 |  | EC50 | p24 | RT-I178L T215Y | MT-2 | 0.003 µM
CCCCCCCCCC(=O)O[C@@H]1[C@@H](C)[C@@]2(O)C(C=C(CO)C[C@]3(O)C(=O)C(C)=CC23)C2C(C)(C)[C@@]21OC(=O)C(C)CC | LAV-1 |  | EC50 | cytopathic effect / microscopy / visual reading |  | MT-4 | <7.81 µg/mL
COc1cc(/C=C/c2cc(Cl)c3ccccc3n2)cc(OC)c1 | UG070 |  | EC50 | luminescence |  | TZM-bl | 111 µM
Nc1nc(NC2CC2)c2ncn([C@H]3C=C[C@@H](COP4(=O)OCc5cc(Cl)ccc5O4)C3)c2n1 | IIIB |  | EC50 | syncytia |  | CEM | 3.5 µM
Nc1ccn([C@H]2CC[C@@H](CO)O2)c(=O)n1 | IIIB TIBO R82913 STR-1 (RT L100I Y181C) |  | EC50 | syncytia | RT-L100I Y181C | CEM | 0.04 µM
Nc1ccc(/C=C/c2cc(Cl)c3ccccc3n2)cc1 | UG070 |  | EC50 | luminescence |  | TZM-bl | 47.73 µM
CC(C)(C)NC(=O)[C@@H]1C[C@H](Oc2ccc3ccccc3c2)CN1C[C@@H](O)C[C@@H](Cc1ccccc1)C(=O)N[C@H]1c2ccccc2C[C@H]1O | IIIB |  | EC95 | p24 |  | MT-4 | >0.4 µM
CC(C)(C)OC(=O)N[C@@H](Cc1ccccc1)[C@@H](O)C[C@@H](Cc1ccc(OCc2nn[nH]n2)cc1)C(=O)N[C@H]1c2ccccc2C[C@H]1O | IIIB |  | EC90 | p24 |  | H9 | >10 µM
Clc1cc(/C=C/c2ccc(N3CCCCC3)cc2)nc2ccccc12 | VB59 |  | EC50 | luminescence |  | TZM-bl | 109 µM
Cc1nc(S(=O)(=O)N2CCN(C[C@@H](O)C[C@@H](Cc3ccccc3)C(=O)N[C@H]3c4ccccc4C[C@H]3O)[C@H](C(=O)NC(C)(C)C)C2)c(C)s1 | IIIB |  | EC50 | p24 |  | MT-4 | <0.2 µM
Cc1cccc2c1OP(=O)(OC[C@@H]1C=C[C@H](n3cnc4c(NC5CC5)nc(N)nc43)C1)OC2 | IIIB |  | EC50 | syncytia |  | CEM | 0.7 µM
C[C@]1(CO)O[C@@H](n2cnc3c(N)nc(F)nc32)C[C@@H]1O |  |  | EC50 | luciferase |  | HOS | 0.063 µM
COC(OC)C(=O)[C@H]1[C@H](C(=O)OC[C@H]2O[C@@H](n3cc(C)c(=O)[nH]c3=O)C[C@@H]2N=[N+]=[N-])C[C@H]2[C@@H]3CCC4=CC(=O)C=C[C@]4(C)[C@H]3[C@@H](O)C[C@@]21C |  |  | EC50 | cytopathic effect / XTT |  | CEM + CEM-SS | 0.035 µM
C[C@H]1/C=C/[C@@]2(C)CC[C@@H](C(C)(C)O)[C@@H]2[C@@H](O)C[C@](C)(O)/C=C/C1 | BAL R5 |  | EC50 | p24 |  | Macrophage + Macrophages | 1.7 µM
C/C=C(/C)C(=O)Oc1c(OC)c(OC)cc2c1-c1c(cc(OC)c(OC)c1OC)[C@H](O)[C@H](C)[C@H](C)C2 |  |  | EC50 | MTT |  | C8166 | 22.9 µM
CCCCCCCCOCCCCC(=O)O | IIIB |  | EC50 | p24 / RT activity |  | H9 | >40 µM
Cc1cn([C@H]2C[C@H](F)[C@@H](CO)O2)c(=O)[nH]c1=O | IIIB |  | EC50 | cytopathic effect / trypan blue |  | MT-4 | 0.003 µM
Cc1ccc(/C=C/c2cc(Cl)c3ccccc3n2)cc1 | UG070 |  | EC50 | luminescence |  | TZM-bl | 10.01 µM
Cc1ccnc2c1NC(=O)c1cccnc1N2C1CC1 |  |  | EC50 |  | RT-M41L T215Y Y181C | MT-4 | <3 µM
Cc1ccnc2c1NC(=O)c1cccnc1N2C1CC1 | IIIB TIBO R82913 STR-B02 (RT L100I E138K) |  | EC50 | syncytia | RT-L100I E138K | CEM | 0.02 µM
C/C=C(/C)C(=O)O[C@@H]1[C@@H](C)[C@@]2(O)C(C=C(CO)C[C@]3(O)C(=O)C(C)=CC23)C2C(C)(C)[C@@]21OC(=O)C(C)CC | LAV-1 |  | EC50 | cytopathic effect / microscopy / visual reading |  | MT-4 | <31.3 µg/mL
Cc1cn([C@H]2C[C@H](N=[N+]=[N-])[C@@H](CO)O2)c(=O)[nH]c1=O |  |  | EC50 | cytopathic effect / XTT |  | CEM + CEM-SS | 0.007 µM
Nc1nc2c(ncn2[C@H]2CC[C@@H](CO)O2)c(=O)[nH]1 | IIIB TIBO R82913 STR-1 (RT L100I Y181C) |  | EC50 | syncytia | RT-L100I Y181C | CEM | 0.7 µM
CCCCC/C=C\C/C=C\CCCCCCCC(=O)OCC1=C[C@H]2[C@@H]3C(C)(C)[C@]3(OC(C)=O)[C@H](O)[C@@H](C)[C@]2(O)[C@@H]2C=C(C)C(=O)[C@@]2(O)C1 | LAV-1 |  | EC50 | cytopathic effect / microscopy / visual reading |  | MT-4 | <15.6 µg/mL
Nc1ncnc2c1ncn2[C@@H]1OC[C@@](/C=C/P(=O)(O)O)(CO)[C@@H]1F | LAI |  | EC50 | MTT |  | PBMC | 56.6 µM
Cc1cn([C@H]2C[C@H](N=[N+]=[N-])[C@@H](CO)O2)c(=O)[nH]c1=O | IIIB | chronic infection | EC90 | p24 |  | H9 | >100 µM
Nc1ncnc2c1ncn2CCOCP(=O)(O)O | LAI |  | EC50 | MTT |  | PBMC | 4.3 µM
C/C=C(/C)C(=O)O[C@]12C(C3C=C(CO)C[C@]4(O)C(=O)C(C)=CC4[C@@]3(O)[C@H](C)[C@H]1OC(C)=O)C2(C)C | LAV-1 |  | EC50 | cytopathic effect / microscopy / visual reading |  | MT-4 | <125 µg/mL
CC(=O)NC1CN=C(SSC2=NCC(NC(C)=O)S2)S1 | RF |  | EC50 | cytopathic effect / XTT |  | CEM + CEM-SS | 37.6 µM
Cc1cccc2c1OP(=O)(OCCOCn1cnc3c(=O)[nH]c(N)nc31)OC2 | IIIB |  | EC50 | syncytia |  | CEM | >50 µM
Clc1cc(/C=C/c2ccco2)nc2ccccc12 | UG070 |  | EC50 | luminescence |  | TZM-bl | 80.96 µM
NC(=O)CSSCC(N)=O | RF |  | EC50 | cytopathic effect / XTT |  | CEM + CEM-SS | 12.9 µM
CC(C)(C)NC(=O)[C@@H]1CN(S(=O)(=O)c2cccnc2)CCN1C[C@@H](O)C[C@@H](Cc1ccccc1)C(=O)N[C@H]1c2ccccc2C[C@H]1O | IIIB |  | EC50 | p24 |  | MT-4 | <0.2 µM
Nc1cc(S(N)(=O)=O)ccc1SSc1ccc(S(N)(=O)=O)cc1N | RF |  | EC50 | cytopathic effect / XTT |  | CEM + CEM-SS | 18 µM
CC(C)(C)OC(=O)N[C@@H](Cc1ccccc1)[C@@H](O)C[C@@H](Cc1ccc(OCC(=O)O)cc1)C(=O)N[C@H]1c2ccccc2C[C@H]1O | IIIB |  | EC90 | p24 |  | MT-4 | >10 µM
CO[P@](=O)(c1cc(C)cc(/C=C/C#N)c1)c1c(C(N)=O)[nH]c2ccc(Cl)cc12 | BH10 |  | EC50 |  | Y181C/K103N |  | <0.0231 µM
Nc1nc(NC2CC2)c2ncn([C@H]3C=C[C@@H](CO)C3)c2n1 | IIIB |  | EC50 | syncytia |  | CEM | 5 µM
CC(C)(C)OC(=O)N[C@@H](Cc1ccccc1)[C@@H](O)C[C@@H](Cc1ccc(OCP(=O)(OCc2ccccc2)OCc2ccccc2)cc1)C(=O)N[C@H]1c2ccccc2C[C@H]1O | IIIB |  | EC50 | cytopathic effect / MTT |  | MT-4 | 0.01 µM

The last 2 rows once more:

structure,strain or isolate,setting,endpoint,read by,changes,cells,result
Nc1nc(NC2CC2)c2ncn([C@H]3C=C[C@@H](CO)C3)c2n1,IIIB,,EC50,syncytia,,CEM,5 µM
CC(C)(C)OC(=O)N[C@@H](Cc1ccccc1)[C@@H](O)C[C@@H](Cc1ccc(OCP(=O)(OCc2ccccc2)OCc2ccccc2)cc1)C(=O)N[C@H]1c2ccccc2C[C@H]1O,IIIB,,EC50,cytopathic effect / MTT,,MT-4,0.01 µM

ECn is the concentration giving n% inhibition of infection, replication or growth. Neighbouring rows are from separate reports.